According to paper PMC11022072, “A secreted bacterial protein protects bacteria from cationic antimicrobial peptides by entrapment in phase-separated droplets” (2024):

Target: N-lobe of M. bovis LbpB in the His-BAP-MBP vector (BLI construct) (Moraxella bovis strain N114)
Test: BLI

## bovine lactoferrin (Lf) (natural protein)
  fold weaker than CaHD:Lf: 5 fold
